Measured values as given in patent publication US20260069679A1.

Molecular target: Original MERS SS ΔG3Loop NPs
Experiment: BLI sensorgrams, six concentrations (not given)

G4 (antibody)
Kd: 3 pM
